The entries are a selection whose mix differs from that of the whole data set. Some salts and complexes are drawn in separate pieces, as the source files them; their charges need not balance. Calls of active or inactive are those of the source. Cut-off read from the data, not from the text of the source: active = activation above about 50%; inconclusive = mostly about 30% to 49%; inactive = weaker than that.

Protein sequences, listed by entry. Tags and fused reporters are not part of them.
UniProt Q9GZU1, whole entry: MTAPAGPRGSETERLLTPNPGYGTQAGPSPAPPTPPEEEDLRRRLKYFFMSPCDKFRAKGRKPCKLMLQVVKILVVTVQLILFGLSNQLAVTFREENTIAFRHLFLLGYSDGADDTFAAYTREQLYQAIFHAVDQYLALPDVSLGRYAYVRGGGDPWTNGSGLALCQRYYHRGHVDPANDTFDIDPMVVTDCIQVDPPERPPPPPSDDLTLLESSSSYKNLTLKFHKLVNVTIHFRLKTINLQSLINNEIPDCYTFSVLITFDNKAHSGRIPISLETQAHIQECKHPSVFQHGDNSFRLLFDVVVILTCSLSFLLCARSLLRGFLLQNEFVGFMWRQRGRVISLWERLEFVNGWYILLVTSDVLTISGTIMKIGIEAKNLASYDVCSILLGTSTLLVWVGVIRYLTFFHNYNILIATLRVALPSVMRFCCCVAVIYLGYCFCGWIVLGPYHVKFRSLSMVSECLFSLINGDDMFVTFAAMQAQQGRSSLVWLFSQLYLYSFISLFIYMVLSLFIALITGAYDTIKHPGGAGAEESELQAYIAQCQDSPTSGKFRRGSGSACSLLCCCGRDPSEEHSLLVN

This assay deals with Mucolipin-1 (Homo sapiens) (UniProt Q9GZU1). Kind of assay: qHTS for Agonists of the Human Mucolipin Transient Receptor Potential 1 (TRPML1). Note: 0% is about no effect. Particulars: TRPML1-expressing cells, Ca2+ dye fluorescence, FDSS; stronger effect = higher value. Summed up:
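Tet-induced TRPML1-DL cells, 1,500 per well, cultured overnight, were loaded with a no-wash Ca2+ dye for 45–90 min. Calcium fluorescence was recorded on the FDSS for 110 s after compound addition, before the EC80 agonist (4 uM 54-4) was added.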
On the technique in general: Quantitative high-throughput screening tests each substance at several concentrations.
For the molecule `CC(C)(C)n1nnnc1C(c1ccccc1)N1CCC(n2c(=O)[nH]c3ccccc32)CC1` (centres undefined), the activation is inactive: -0.599%.
Regarding `O=C(NCC1(N2CCOCC2)CCCCC1)c1ccc(Cl)cc1`, the activation was inactive: 0.897%.
Under `CCOc1ccc(C)cc1CN(CCCl)CCCl` stands inactive: 0.968%; under `O=C(NCC1(N2CCOCC2)CCCCC1)c1cc(=O)[nH]c2ccccc12`, inactive: -0.618%; under `COc1cc(C(=O)NCC2(N3CCCCC3)CCCCC2)ccc1OC(F)F`, inactive: 0.311%.
Under `COc1ccc(NC2CCN(C(=O)OC(C)(C)C)CC2)cc1` stands inactive: -0.441%; under `CC(C)c1ccc(C(=O)NCC2(N3CCOCC3)CCCCC2)cc1`, inactive: 0.138%; under `CN1CCN(CCOC(=O)C(O)(c2ccccc2)c2ccccc2)CC1`, inactive: 0%.
On to `CCCCn1nnnc1C(c1cccc2ccccc12)N1CCC(n2c(=O)[nH]c3ccccc32)CC1` (centres undefined), for which the activation was inactive: 2.52%.
On to `O=[N+]([O-])c1cc([N+](=O)[O-])c(NCC2CCS(=O)(=O)C2)c([N+](=O)[O-])c1` (centres undefined), for which the activation is inactive: -0.782%.
Consider `O=C(NCC1(N2CCCCC2)CCCCC1)c1cccc(C(F)(F)F)c1`, for which the activation was inactive: 0.406%.
As to `CCCOc1cccc(C(=O)NCC2(N3CCOCC3)CCCCC2)c1`, the activation was inactive: 1.61%.
`O=c1[nH]c2ccccc2n1C1CCN(C(c2ccccc2OC(F)(F)F)c2nnnn2C2CCCC2)CC1` (centres undefined): the activation was inactive: 2.44%.
As to `N#CC1(Nc2ccccc2)CCN(CCc2ccccc2)CC1`, the activation is inactive: -0.436%.
In the case of `CCN1CCC(Nc2ccc(Cl)cc2)CC1`, the activation is inactive: -0.107%.
Take `CSc1ccc(C(=O)NCC2(N3CCOCC3)CCCCC2)cc1`: the activation is inactive: -0.0358%.
Regarding `CCOc1ccc(C(=O)NCC2(N3CCOCC3)CCCCC2)cc1`, the activation is inactive: 0.897%.
With `O=C(NCC1(N2CCCCC2)CCCCC1)c1cccc([N+](=O)[O-])c1`, the activation is inactive: 1.86%.
Under `O=C(NCC1(N2CCCCC2)CCCCC1)c1ccc(OC(F)F)cc1` stands inactive: -0.127%; under `CC(C)(C)n1nnnc1C(c1ccccc1OC(F)(F)F)N1CCC(n2c(=O)[nH]c3ccccc32)CC1` (centres undefined), inactive: -0.662%.
Under `COc1ccc(C(c2nnnn2C2CCCC2)N2CCC(n3c(=O)[nH]c4ccccc43)CC2)cc1` (centres undefined) stands inactive: -0.441%; under `O=[N+]([O-])c1cc([N+](=O)[O-])c(Nc2ccc(Cl)cc2)c([N+](=O)[O-])c1`, inactive: 6.4%.
As to `O=C(NCC1(N2CCOCC2)CCCCC1)c1ccccc1Br`, the activation was inactive: 1.79%.
The value for `CCCOc1ccc(C(=O)NCC2(N(C)C)CCCCC2)cc1OC` was inactive: -0.222%.
Take `CCCCOc1ccccc1C(=O)NCC1(N2CCOCC2)CCCCC1`: the activation was inactive: 2.77%.
`Cc1ccc(C(=O)NCC2(N(C)C)CCCCC2)o1`: the activation was inactive: -0.399%.
Under `O=C(OC1CN2CCC1CC2)c1ccc([N+](=O)[O-])cc1` (centres undefined) stands inactive: -1.12%; under `CN1CCC(Nc2cccc(F)c2)CC1`, inactive: -0.0671%.
With `O=C(NCC1(N2CCCCC2)CCCCC1)c1cncc(Br)c1`, the activation is inactive: -0.583%.
The value for `COc1ccc2c(c1O)-c1c(O)c(OC)cc3c1[C@H](C2)[N+](C)(C)CC3.O=[N+]([O-])c1cc([N+](=O)[O-])c([O-])c([N+](=O)[O-])c1[O-]` was inactive: -0.305%.
`CCC(c1nnnn1C(C)(C)C)N1CCC(n2c(=O)[nH]c3ccccc32)CC1` (centres undefined): the activation was inactive: -0.162%.
Regarding `O=C(NCC1(N2CCOCC2)CCCCC1)c1cc(F)c(F)cc1Cl`, the activation is inactive: -1.08%.
Turning to `COc1cc(OC)c(C(=O)NCC2(N(C)C)CCCCC2)cc1OC`, the activation is inactive: -0.38%.
In the case of `CCCCn1nnnc1C(c1ccnc2ccccc12)N1CCC(n2c(=O)[nH]c3ccccc32)CC1` (centres undefined), the activation was inactive: -0.315%.
`CC(C)c1ccc(NC2CCN(C(=O)OC(C)(C)C)CC2)cc1`: the activation is inactive: 26.3%.
As for `CCCCn1nnnc1C(c1ccccc1OC(F)(F)F)N1CCC(n2c(=O)[nH]c3ccccc32)CC1` (centres undefined), the activation was inactive: -0.378%.
For `CN(C)c1cccc(C(=O)NCC2(N3CCCCC3)CCCCC2)c1`, the activation is inactive: -0.331%.
With `O=[N+]([O-])c1cc([N+](=O)[O-])c(OC2CCCCC2O)c([N+](=O)[O-])c1` (centres undefined), the activation is inactive: -0.969%.
Take `COc1ccc(CN(CCCl)CCCl)cc1Cl`: the activation is inactive: 0.616%.

The values above are taken from PubChem BioAssay AID624414 (National Center for Advancing Translational Sciences (NCATS), 2012).
